Data taken from the supplement of paper PMC9931576.
Human monoclonal antibodies against the spike receptor-binding domain (heavy:light variable regions). IC50 against pseudoviruses bearing the spike of naturally observed variants; lower = stronger; >10 µg/ml means not reached at the top dose. No active / inactive call. The stated detection limit is 0.0005 µg/ml; values near or below 0.001 µg/ml lie at the floor of the assay.

Experiments:
Assay in all cases: pseudovirus neutralization IC50; higher = weaker neutralization
[1] = target: SARS-CoV-2 Omicron BA.1 spike pseudovirus
Experimental: (§1)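 Single-round VSV luciferase pseudovirus mixed with antibody dilutions for 1 h and put on Huh-7 cells for about a day; IC50 from the dose curve.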

[2] = target: SARS-CoV-2 Omicron BA.2 spike pseudovirus
Experimental: as §1

[3] = target: SARS-CoV-2 Omicron BA.2.75 spike pseudovirus
Experimental: as §1

[4] = target: SARS-CoV-2 Omicron BA.5 spike pseudovirus
Experimental: as §1

[5] = target: SARS-CoV-2 Omicron BQ.1.1 spike pseudovirus
Experimental: as §1

[6] = target: SARS-CoV-2 Omicron XBB spike pseudovirus
Experimental: as §1

[7] = target: SARS-CoV-2 early D614G spike pseudovirus
Experimental: as §1

| Binder | pseudovirus neutralization IC50 [1] | pseudovirus neutralization IC50 [2] | pseudovirus neutralization IC50 [3] | pseudovirus neutralization IC50 [4] | pseudovirus neutralization IC50 [5] | pseudovirus neutralization IC50 [6] | pseudovirus neutralization IC50 [7] |
| --- | --- | --- | --- | --- | --- | --- | --- |
| BD56-1895 (protein) chain 1: EVQLLESGGGLVQPGGSLRISCAASGFTFRDNAMTWVRQAPGKGLEWVSSVSYRGSDTYYADSVKGRFTISRDNSNNTLYLQMNSLRVDDTAVYFCAAGRVTADWYFDLWGRGTLVTVSS chain 2: QSALTQPRSVSGSPGQSVTISCTGTSSDVGAYNYVSWYQQHPGKAPKIMIYDVTKRPSGVPDRFSGSKSGNTASLTISGLQAEDEADYFCCSYAGTWVFGGGTKVTVL | 0.289 µg/mL | 0.00287 µg/mL | 0.194 µg/mL | 0.00242 µg/mL | > 10 µg/mL | > 10 µg/mL | 0.0596 µg/mL |
| BD56-1907 (protein) chain 1: QVQLVQSGGEVKKPGSSVKVSCKASGGASSSYAISWVRQAPGQSFEWMGRIIPVLNLTNYAQNFQGRVTITADKSTSTTYMELSSLRSEDTAIYFCARVGFGNVWYLFDFWGQGTLVAVSS chain 2: EIVMTQSPATLSVSPGERATLSCRASQSVSTNLAWYQQKPGQAPRLLIYGASTRATGISARFSGSGSGTDFTLTISSLQSEDFALYYCQQYDNWYTFGQGTKLEIK | 0.00492 µg/mL | 0.00567 µg/mL | 0.183 µg/mL | > 10 µg/mL | > 10 µg/mL | > 10 µg/mL | 0.00307 µg/mL |
| BD56-1911 (protein) chain 1: QVQLQESGPGLVKPSGTLSLTCVVSGGSIITTNWWSWVRQSPGKGLEWIGEIHHSGNTNYNPSLKSRVTISVDKSKNHFSLNLSSVTAADTAIFYCARDRGGVGDGFDIWGQGTMVTVSS chain 2: QSALTQPASVSGSPGQSITISCTGTSSDVGGYNYVSWYQQHPGKAPKLIIYDVRDRPSGISNRFSGSKSGNTASLTISGLQPEDEADYYCNSFTSSSTRVFGTGTKVTVL | > 10 µg/mL | 0.0239 µg/mL | 1.94 µg/mL | 0.0227 µg/mL | > 10 µg/mL | > 10 µg/mL | 0.0111 µg/mL |
| BD56-1915 (protein) chain 1: QVQLEQSGAEVKKPGSSVKVSCKASGDTFSRHAITWVRQAPGQGLEWMGRIIPMFDIPNYAQKFQGRVTLTADKSTSTVYMEVSSLRSDDTAVYYCATSAYQYGSSGYYIDHWGQGTLVTVSS chain 2: EIVLTQSPGTLSLSPGERATLFCRASQSVSSSYLAWYQQKAGQAPRLLIYGASNRAAGIPDRFGGSGSGTDFTLTISRLEPEDFAVYYCHQYHSSPRTFGQGTKVEVK | 0.0781 µg/mL | 0.0978 µg/mL | 0.0232 µg/mL | > 10 µg/mL | > 10 µg/mL | > 10 µg/mL | 0.00194 µg/mL |
| BD56-1919 (protein) chain 1: DVQLVESGGGLVQPGGSLKLSCAASGFTFSGSAMHWVRQASGKGLEWVGRIRSILSSYETAYSASLKGRFTISRDDSKNTAYLQLNSLKTEDTAVYYCSMSGYSGYDELDIWGQGTLVTVSS chain 2: DIQMTQSPSSLSASVGDRVTITCRAGQSITSYLNWYQQKPGKAPKLLIYAASSLQSGVPSRFSGSGSGTDFTLTISSLQPEDFATYYCQQSHSTPFTFGPGTKVDIK | > 10 µg/mL | > 10 µg/mL | > 10 µg/mL | > 10 µg/mL | > 10 µg/mL | > 10 µg/mL | 0.153 µg/mL |
| BD56-1921 (protein) chain 1: QVHLQESGPGLVKPSETLSLTCAVAGDSISSNNWWIWVRQPPGKGLEWIGEIFHTGGSQYNPSLKSRVTISVDKSKSQFSLRLNSVTAADTAIYYCAKGLGMVDSWGQGTLVTVSS chain 2: DIQMTQSPSSLSASVGDRVTITCRASQGISNSLAWYQQIPGKAPKLLLYSASTLESGVPSRFSGSGSGTDFTLSISSLQPADFATYYCQQYYSSPRTFGQGTKVEIK | 0.00452 µg/mL | 0.00271 µg/mL | 0.00364 µg/mL | 0.00815 µg/mL | 0.051 µg/mL | 0.383 µg/mL | 0.00448 µg/mL |
| BD56-1922 (protein) chain 1: QVHLVESGGGVVQPGGSLRLSCVASGFDFNTYGMHWVRQAPGKGLEWVAVIWFDGKNRNYGEFVKGRFAISRDNAKNTLYLQMNRLRAEDTAVYYCAKDRAHFYGSGSYFDADYYGMDVWGQGTTVTVSS chain 2: DIQMTQSPSSLSASVGDSVTILCRASQAINNFLAWFQQKPGKAPRSLIYSASILQSGVPSTFSGSGSGTDFTLNISSLQPDDSAIYYCQQYKAYPLTFGPGTKVEIK | 0.0541 µg/mL | 0.0375 µg/mL | 0.0255 µg/mL | 0.478 µg/mL |  |  | 0.000329 µg/mL |
| BD56-1928 (protein) chain 1: EVQLVESGGGLVQPGGSLRLSCAASGFTVTRTYMSWVRQAPGKGLEWVSVINSAGTTYYADSVKGRFIISRDNSKNTLYLQMNSLRAEDTAVYYCARDPAGFGEFGFDFWGQGTLVTVSS chain 2: DIQLTQSPSSLSASVGDRVTITCRASQGIGSYLAWYQQKPGKAPKLLIYAASTLQSGVPSRFSGGGSGTDFTLTISSLQPEDFATYYCQQLNSYPPFTFGGGTKVEMK | 3.38 µg/mL | 3.11 µg/mL | > 10 µg/mL | 2.61 µg/mL | > 10 µg/mL | > 10 µg/mL | 0.00901 µg/mL |
| BD56-1930 (protein) chain 1: QVQLVQSGAEVKKPGSSVEVSCKASGGTFSRYAISWVRQAPGQGLEWMGRIIPMFGMANYAQKFQGRVTITADKSTSTAYMEMSSLRSEDTAVYYCATSPFYSDSSGYYLDNWGQGTLVTVSS chain 2: DIQMTQSPSSLSASVGDRVTITCRASQDIHNYLAWYQQKPGKVPKLLIYATSTLQSGVPSRFSGSGSGTDFTLTISSLQPEDVATYYCQRYDSAPRTFGPGTKVDIK | 0.192 µg/mL | 0.132 µg/mL | 0.157 µg/mL | > 10 µg/mL | > 10 µg/mL | > 10 µg/mL | 0.00153 µg/mL |
| BD56-1935 (protein) chain 1: QVQLQESGPGLVKPSETLSLTCTVSGGSVSSGSCYWSWIRQPPGKGLEWIGYIYYNGRTNYNPSLKSRVTISLDTSRNQFSLKVTSVTAADTAVYYCAREPIVVPAAIPPYGLDVWGQGTTVTVSS chain 2: EIVLTQSPATLSLSPGERATLSCRASQSVNSYLAWYQQKPGQAPRLLIYDSSNRATGIPARFSGSGSGTDFTLTISSLEPEDFAVYYCLQRSNWPPLTFGGGTKVEIK | 0.124 µg/mL | 0.062 µg/mL | 0.0933 µg/mL | > 10 µg/mL | > 10 µg/mL | 0.248 µg/mL | 0.00212 µg/mL |
| BD56-1937 (protein) chain 1: EVQLVESGGGLVQPGGSLRLSCEASGLIVSRNYMSWVRQAPGKGLEWVSVIYAGGSTFYADSVKGRFTISRNDSKNTMYLQLNSLRAEDTAVYFCARDQGEDVFDIWGQGTMVTVSS chain 2: DIQLTQSPAFLSASVGDRVTITCRASQGISSYLAWYQQKPGKAPKLLIYAASTLQSGVPSRFSGSGSGTAFTLTISSLQPEDFATYYCQQLNSYPPLFGGGTKVEIK | 0.0845 µg/mL | 0.0995 µg/mL | > 10 µg/mL | > 10 µg/mL | > 10 µg/mL | > 10 µg/mL | 0.0238 µg/mL |
| BD56-1945 (protein) chain 1: QVQLVQSGAEMKKPGSSVKVSCKASGGTFDSQSISWVRQAPGQGLEWMGRLIPMFGVPNYAQRFQGRITITADKSTTTAYMELSRLRSEDTAVYYCARDHGYIHGYSDYWGQGTLVTVSS chain 2: EIVLTQSPATLSLSPGERATLSCRASQGVSNYLAWYQQKLGQAPRLLIYDAFKRATGIPARFSGSGSGTDFTLTISSLEPEDFAVYYCQQRSNWPLTFGGGTKVEIK | > 10 µg/mL | > 10 µg/mL | > 10 µg/mL | > 10 µg/mL | > 10 µg/mL | > 10 µg/mL | 0.00171 µg/mL |
| BD56-1949 (protein) chain 1: QVQLVQSGAEVKKPGSSVKVSCKASGDTFSRYAISWVRQAPGQGLEWMGRLIPRFGMANYAQNFQGRVTMSADTSTSTAYMEMSSLTSEDTAVYYCATSPFFPDSSAYYLDYWGQGTLVTVSS chain 2: DIQMTQSPSSLSASVGDRVTITCRASQGISNFLAWYQQKPGKVPKLLIYGASILQSGVPSRFSGSGSGTDFTLTISSLQPEDVATYYCQKYNSAPRTFGPGTKVDIK | 0.31 µg/mL | 0.167 µg/mL | 0.00994 µg/mL | > 10 µg/mL | > 10 µg/mL | > 10 µg/mL | 0.00315 µg/mL |
